Pooled drug test results. Numbers come from NIAID ChemDB, via PubChem.

All rows: tests in culture; agent: HIV-1

Two numbers with a dash give a range or band.

| smiles | strain | method | cell line | measure | changes | value |
|---|---|---|---|---|---|---|
| CCN1c2ncc(CCOc3ccc(C(=O)Nc4cccc(CC(=O)O)c4)cc3C)cc2C(=O)N(C)c2cccnc21 |  | p24 | C8166 | EC50 | RT-K103N Y181C | 0.01–0.05 µM |
| CCCCCCCCC(=O)O[C@@H]1[C@@H](C)[C@@]2(O)[C@@H](C=C(CO)C[C@@]3(O)C(=O)C(C)=C[C@@H]23)[C@@H]2C(C)(C)[C@]12OC(=O)CCCCCCCC | IIIB | p24 / ELISA | C8166 | EC50 |  | 123 µM |
| Nc1ncnc2c1ncn2[C@H]1C=C[C@@H](CO)C1 | IIIB | cytopathic effect / XTT | MT-2 | EC50 |  | 2.3 µg/mL |
| Cc1cccc(C(=O)OCc2nc3ccccc3nc2C)c1O | BaL | RT activity | PBMC | EC90 |  | >100 µM |
| Cc1cc(S(N)(=O)=O)ccc1NC(=O)COc1ccc(Cl)cc1C(=O)c1cc(Cl)cc(C#N)c1 | Nevirapine-resistant (RT Y181C) | cytopathic effect / propidium iodide | MT-4 | EC50 | RT-Y181C | <0.01 µM |
| CC(C)C[C@H](NC(=O)c1ccccc1SSc1ccccc1C(=O)N[C@@H](CC(C)C)C(=O)OCc1ccccc1)C(=O)OCc1ccccc1 | IIIB | cytopathic effect / XTT | CEM | EC50 |  | >73 µM |
| Cc1cc(C#N)cc(C(=O)c2cc(Cl)ccc2OCC(=O)Nc2ccc(S(N)(=O)=O)nc2C)c1 | HXB2 | β-galactosidase | HeLa + HELA CD4+ | EC50 | RT-V106A Y181C | <0.01 µM |
| COC(=O)c1ccc(C(=O)OCc2nc3ccccc3nc2C)cc1 | 89BZ167 | RT activity | PBMC | EC90 |  | >100 µM |
| Cc1cc(C#N)cc(C(=O)c2cc(Cl)ccc2OCC(=O)Nc2ccc(S(N)(=O)=O)cc2C)c1 | WTRVA | β-galactosidase | HeLa + HELA CD4+ | EC50 |  | <0.01 µM |
| COC(=O)C(NC(=O)c1ccccc1SSc1ccccc1C(=O)NC(C(=O)OC)C(=O)OC)C(=O)OC | IIIB | cytopathic effect / XTT | CEM | EC50 |  | >100 µM |
| CC1=C[C@H]2[C@@]3(O)[C@H](C)[C@@H](OC(=O)/C=C/c4ccc(F)cc4)[C@]4(OC(=O)CCCCCBr)[C@H]([C@@H]3C=C(CO)C[C@]2(O)C1=O)C4(C)C | IIIB | p24 / ELISA | C8166 | EC50 |  | 0.154 µM |
| O=C(O)c1cc(-n2cccc2)ccc1Cl | 93BR020 X4R5 CLADE F | luciferase / cell fusion | PBMC/5.25M7 | EC90 |  | 20.32 µM |
| NCCCC[C@H](NC(=O)c1ccccc1SSc1ccccc1C(=O)N[C@@H](CCCCN)C(=O)O)C(=O)O | IIIB | cytopathic effect / XTT | CEM | EC50 |  | >100 µM |
| Cc1cc(S(N)(=O)=O)ccc1NC(=O)COc1ccc(Cl)cc1C(=O)c1cc(F)cc(C#N)c1 | HXB2 | β-galactosidase | HeLa + HELA CD4+ | EC50 | RT-K103N | <0.01 µM |
| Cc1ccc(C(=O)OCc2nc3ccccc3nc2C)cc1O | BaL | RT activity | PBMC | EC50 |  | >100 µM |
| COC(=O)C[C@H](CCCCNC(=O)OCc1ccccc1)NC(=O)c1ccccc1SSc1ccccc1C(=O)N[C@@H](CCCCNC(=O)OCc1ccccc1)CC(=O)OC | IIIB | cytopathic effect / XTT | CEM | EC50 |  | >16 µM |
| COC(=O)c1cc2c(c(OC)c1-c1ccc(N(C)C)cc1)OCO2 | MN | p24 / ELISA | C8166 | EC50 |  | 0.97 µg/mL |
| CCN1c2ncc(CCOc3ccc(-c4ccc(C(=O)O)cc4)c(C)c3)cc2C(=O)N(C)c2cccnc21 | IIIB | p24 | C8166 | EC50 |  | 0.01–0.05 µM |
| CC(NC(=O)c1ccccc1SSc1ccccc1C(=O)NC(C)C(=O)O)C(=O)O | IIIB | cytopathic effect / XTT | CEM | EC50 |  | 35.3 µM |
| CC(=O)OCC1=C[C@H]2[C@@H]3C(C)(C)[C@]3(OC(C)=O)[C@H](OC(=O)CCCCn3ccc(=O)n(CCCOC(=O)[C@]45CCCC[C@H]4C4=CC[C@@H]6[C@@]7(C)CC[C@H](O)C(C)(C)[C@@H]7CC[C@@]6(C)[C@]4(C)CC5)c3=O)[C@@H](C)[C@]2(O)[C@@H]2C=C(C)C(=O)[C@@]2(O)C1 | IIIB | p24 / ELISA | C8166 | EC50 |  | >200 µM |
| Cc1cc(S(N)(=O)=O)ccc1NC(=O)COc1ccc(Cl)cc1C(=O)c1cccc(C#N)n1 | HXB2 (RT-K103N Y181C) Recombinant | β-galactosidase | HeLa + HELA CD4+ | EC50 | RT-K103N Y181C | <0.01 µM |
| CC[C@H](C)[C@@H](CCC(=O)O)NC(=O)c1ccccc1SSc1ccccc1C(=O)N[C@H](CCC(=O)O)[C@@H](C)CC | IIIB | cytopathic effect / XTT | CEM | EC50 |  | 4.9 µM |
| Cc1cc(S(N)(=O)=O)ccc1NC(=O)COc1ccc(Cl)cc1C(=O)c1cc(F)cc(F)c1 | HXB2 | β-galactosidase | HeLa + HELA CD4+ | EC50 | RT-V106A | 0.011–0.1 µM |
| COc1cc(C(=O)OCc2nc3ccccc3nc2C)cc(OC)c1OC | 89BZ167 | RT activity | PBMC | EC90 |  | >100 µM |
| O=C(N[C@@H](CO)C(=O)O)c1ccccc1SSc1ccccc1C(=O)N[C@@H](CO)C(=O)O | IIIB | cytopathic effect / XTT | CEM | EC50 |  | >100 µM |
| CCc1cc(C#N)cc(C(=O)c2cc(Cl)ccc2OCC(=O)Nc2ccc(S(N)(=O)=O)cc2C)c1 | HXB2 | β-galactosidase | HeLa + HELA CD4+ | EC50 | RT-V106A Y181C | <0.01 µM |
| Cc1ccc(-c2ccc3c(c2)C=C(C(=O)Nc2ccc(C[N+](C)(C)C4CCOCC4)cc2)CCC3)cc1 | TB5 CLADE C | p24 | PBMC | EC50 |  | <1 µM |
| COc1cc(OC)cc(C(=O)OCc2nc3ccccc3nc2C)c1 | BaL | RT activity | PBMC | EC50 |  | >100 µM |
| CCN1c2ncc(CCOc3ccc(C(=O)NS(C)(=O)=O)cc3C)cc2C(=O)N(C)c2cccnc21 |  | p24 | C8166 | EC50 | RT-K103N Y181C | >0.05 µM |
| CCCC(=O)O[C@@]12[C@H](OC(=O)/C=C/c3ccccc3)[C@@H](C)[C@@]3(O)[C@@H](C=C(CO)C[C@]4(O)C(=O)C(C)=C[C@@H]34)[C@@H]1C2(C)C | IIIB | p24 / ELISA | C8166 | EC50 |  | 0.0079 µM |
| OC[C@@H]1C=C[C@H](n2cnc3c(Cl)ncnc32)C1 | IIIB | cytopathic effect / XTT | MT-2 | EC50 |  | >10 µg/mL |
| CCN1c2ncc(CCOc3ccc(-c4ccccn4)cc3C)cc2C(=O)N(C)c2cccnc21 |  | p24 | C8166 | EC50 | RT-K103N Y181C | <0.01 µM |
| O=C(COc1ccc(Cl)cc1C(=O)c1cc2ccccc2o1)Nc1ccccc1 | Nevirapine-resistant (RT Y181C) | cytopathic effect / propidium iodide | MT-4 | EC50 | RT-Y181C | 0.101–1 µM |
| Cc1cn([C@H]2C[C@H](N=[N+]=[N-])[C@@H](CO)O2)c(=O)[nH]c1=O | 89BZ167 | RT activity | PBMC | EC50 |  | 0.0026 µM |
| CC[C@@H](C)[C@@H](NC(=O)c1ccccc1SSc1ccccc1C(=O)N[C@@H](C(=O)O)[C@H](C)CC)C(=O)O | IIIB | cytopathic effect / XTT | CEM | EC50 |  | 6.3 µM |
| Cc1nc2ccccc2nc1COC(=O)c1ccc2ccccc2c1O | 89BZ167 | RT activity | PBMC | EC90 |  | >100 µM |
| CCCC[C@H](NC(=O)c1ccccc1SSc1ccccc1C(=O)N[C@@H](CCCC)C(=O)O)C(=O)O | IIIB | cytopathic effect / XTT | CEM | EC50 |  | 7.4 µM |
| Nc1nc(N)c2ncn([C@H]3C=C[C@@H](CO)C3)c2n1 | IIIB | cytopathic effect / XTT | MT-2 | EC50 |  | 2.9 µg/mL |
| Cc1cc(Cl)cc(C(=O)c2cc(Cl)ccc2OCC(=O)Nc2ccc(S(N)(=O)=O)cc2C)c1 | Nevirapine-resistant (RT Y181C) | cytopathic effect / propidium iodide | MT-4 | EC50 | RT-Y181C | <0.01 µM |
| CC/C=C\C/C=C\C/C=C\C/C=C\C/C=C\CCCC(=O)O[C@@H]1[C@@H](C)[C@@]2(O)[C@@H](C=C(COC(C)=O)C[C@]3(O)C(=O)C(C)=C[C@@H]23)[C@@H]2C(C)(C)[C@]12O | IIIB | p24 / ELISA | C8166 | EC50 |  | 5.08 µM |

3 of the rows above, restated:

smiles | strain | method | cell line | measure | changes | value
O=C(N[C@@H](CO)C(=O)O)c1ccccc1SSc1ccccc1C(=O)N[C@@H](CO)C(=O)O | IIIB | cytopathic effect / XTT | CEM | EC50 |  | >100 µM
COC(=O)c1cc2c(c(OC)c1-c1ccc(N(C)C)cc1)OCO2 | MN | p24 / ELISA | C8166 | EC50 |  | 0.97 µg/mL
Cc1ccc(-c2ccc3c(c2)C=C(C(=O)Nc2ccc(C[N+](C)(C)C4CCOCC4)cc2)CCC3)cc1 | TB5 CLADE C | p24 | PBMC | EC50 |  | <1 µM

ECn is the concentration giving n% inhibition of infection, replication or growth. An empty or dashed field is not shown. Rows are shuffled and stem from different studies.